One assay concerns the target Gelatinase E (GelE) (Enterococcus faecalis (strain ATCC 700802 / V583), UniProt Q833V7). The assay can be described thus: Gelatinase E activity assay (FRET peptide substrate). Conditions: read-out: GelE IC50; purified GelE, room temperature, 30 minutes. The procedure:
Gelatinase E (Gel E) was purified from bacterial culture supernatant from E. faecalis. E. faecalis was cultured aerobically in Todd Hewitt Broth overnight at 37° C. Nucleic acid was precipitated with 0.9% protamine solution, followed by protein precipitation with ammonium sulfate. Resuspended protein pellet was further subjected to purification using FPLC (phenyl Sepharose column). Fractions with gelatinase activity as determined by casein agar assay were pooled and further concentrated.
Different concentrations of test compound were incubated with purified GelE and FRET-based peptide substrate (390 MMP FRET Substrate 1; Anaspec AS-27077) in assay buffer at room temperature for 30 minutes. The fluorescence signal was determined by a plate reader.

By UniProt entry, the sequences of proteins in these tests, tags left out. Residues count along the entry.
UniProt Q833V7, 193-510 limits assumed: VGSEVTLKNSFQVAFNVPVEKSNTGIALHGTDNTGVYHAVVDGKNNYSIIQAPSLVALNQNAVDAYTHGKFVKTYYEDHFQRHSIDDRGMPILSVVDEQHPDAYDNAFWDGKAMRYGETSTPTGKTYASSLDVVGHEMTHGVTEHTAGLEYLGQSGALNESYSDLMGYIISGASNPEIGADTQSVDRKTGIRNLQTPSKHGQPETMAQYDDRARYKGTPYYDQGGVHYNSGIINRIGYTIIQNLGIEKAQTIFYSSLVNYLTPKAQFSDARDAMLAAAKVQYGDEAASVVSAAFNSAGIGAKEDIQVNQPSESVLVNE

For the next assay, the system named is recombinant BFT (rBFT). Put plainly: NFF-3 cleavage assay. Conditions: read-out: NFF3 IC50; rBFT pre-incubated with compound 30 minutes at 37° C., then NFF-3 for 24 hours. The procedure:
A NFF-3 cleavage assay was used to test activity of recombinant BFT, before or after addition of various inhibitors. The NFF-3 cleavage assay was previously described by Goulas et al., PNAS, 2011, 108(5) 1856-1861, which is incorporated by reference herein in its entirety.
Initially, recombinant BFT (rBFT) (0.25, 0.5, 1, 2, 4, 8, or 16 μg/mL) was incubated at 37° C. with the fluorogenic substrate NFF-3 (Cayman Chemical) at a concentration of 2.5 μM, 5 μM, or 10 μM. After 18 hours, fluorescence was measured in a microplate fluorimeter.
Next, rBFT was pre-incubated with one or more test compounds at different concentrations for 30 minutes at 37° C. The rBFT-compound mixture was then added to NFF-3 and incubated for 24 hours at 37° C. Fluorescence was then measured in a microplate fluorimeter.

Structures are written as SMILES. pIC50: −log10 of the molar value. The match of structure and compound is tentative.

For orientation: pIC50 means the negative decadic logarithm of the IC50, by convention in mol/L.

Take `CC[C@H](C(=O)NO)N(Cc1cccnc1)C(=O)c1ccc(OC)cc1`: the results for the pIC50 at Gelatinase E (GelE) and in the assay with recombinant BFT (rBFT) were 4.78 and 4.02, respectively.

(Values after patent US20230357139A1, “SMALL MOLECULE INHIBITORS OF BACTERIAL TOXINS” (Artizan Biosciences, Inc., priority 2020, published 2023).)
